The subject of this data set is HIV-1. The data set is described as follows: Inhibition of HIV-1 replication in MT-2 lymphocytes. Conditions: MT-2 CC50 / HIV-1 IC50.

In the case of 24-epi-biyouyanagin A [2a], the “TI, therapeutic index (CC50/IC50)” value came to 14.4.
4-epi-hyperolactone C [compound 16]: the “TI, therapeutic index (CC50/IC50)” value worked out at 13.3.
